A mixed list of measured activities; the numbers were collected in NIAID ChemDB.

Shared fields: target-level tests

ICn is the concentration giving n% inhibition. Percent inhibition refers to the dose given; in toxicity tests it is the harm to the cells. Fold resistance: result on the changed form divided by that on wild type. An empty or dashed field is not shown. Lines come from different laboratories, so protocols vary.

smiles | organism | strain or isolate | changes | protein | read by | conditions | measure | dose | result
C=CCOC(=O)C1=C(CCCCC[C@@H](C)O[Si](C)(C)C(C)(C)C)NC2=[N+]3[C@H](CC[C@@H]13)C[C@H](C)N2 | HIV-1 | NL4-3 |  | Nef | ELISA |  | inhibition | 5 µM | 102.2%
Cc1c(Sc2ccccc2)n(COCCO)c(=O)[nH]c1=O | HIV |  | RT-Y181I Y188L | Reverse transcriptase |  |  | fold resistance |  | >10
CNC(=O)[C@@H](NC(=O)[C@H](OCc1ccccc1)[C@H](O)[C@@H](O)[C@@H](OCc1ccccc1)C(=O)N[C@H]1c2ccccc2C[C@H]1O)C(C)C | HIV |  | PR-V82A I84V L90M | Protease |  |  | fold resistance |  | 7.5
Cc1cn([C@@H]2O[C@H](CO[Si](C)(C)C(C)(C)C)[C@@]3(OS(=O)(=O)C=C3N)[C@H]2O[Si](C)(C)C(C)(C)C)c(=O)[nH]c1=O | HIV |  | RT-N137K | Reverse transcriptase | nucleotide incorporation / radiometric |  | IC50 |  | 2.1 µM
CC(C)[C@H](NC(=O)c1ccc2ccccc2n1)C(=O)N[C@@H](Cc1ccccc1)[C@H](O)CN1CC[C@@H](SCc2cccnc2)C[C@H]1C(=O)NC(C)(C)C | HIV |  | PR-V32I | Protease | fluorescence |  | Ki |  | 0.000039 µM
CC[C@H]1C=CCC[C@@]2(C[C@@H]3CC[C@@H]4[C@H](C(=O)OCCCCCC(=O)N(CCC[NH3+])C[C@@H](O)CC[NH3+])[C@]5(CCC[C@@H](C)O5)NC(=[N+]34)N2)O1 | HIV-1 | NL4-3 |  | Nef | ELISA |  | inhibition | 5 µM | 80.6%
Cc1cc(SC2=C(O)C[C@@](CCc3ccc(O)cc3)(C(C)C)OC2=O)c(C(C)(C)C)cc1N | HIV |  |  | Protease | HPLC |  | inhibition | 1 µM | 0%
Cc1cccc(C)c1OCC(=O)N[C@@H](Cc1ccccc1)[C@H](O)CN1CC[C@@H](Sc2ccncc2)C[C@H]1C(=O)NC(C)(C)C | HIV |  | PR-V32I | Protease | fluorescence |  | fold resistance |  | 15.1
CCOCn1c(Cc2ccccc2)c(C(C)C)c(=O)[nH]c1=O | HIV-2 | EHO | RT-E219D | Reverse transcriptase | nucleotide incorporation |  | IC50 |  | >1656 µM
O=S1(=O)N(Cc2ccc(CO)cc2)[C@H](COc2ccccc2)[C@H](O)[C@@H](O)[C@@H](COc2ccccc2)N1Cc1ccc(CO)cc1 | HIV |  | PR-G48V V82A I84V L90M | Protease |  |  | fold resistance |  | 377
CCCCCCC[C@H](O)C[C@@H]1CC[C@H]2C(C(=O)O[C@H](C)CCCCCCC[C@@H]3C[C@@H]4CC[C@@H]5C[C@H](C)NC(=[N+]54)N3)=C(C)NC(N)=[N+]12 | HIV-1 | NL4-3 |  | Nef | ELISA |  | inhibition | 5 µM | 85.5%
Cc1cc(SC2=C(O)C[C@@](CCc3ccc(O)cc3)(C(C)C)OC2=O)c(C(C)(C)C)cc1N | HIV |  | PR-V82F | Protease |  |  | fold resistance |  | 25
O=C1N(Cc2ccc(CO)cc2)[C@H](COc2ccccc2)[C@H](O)[C@@H](O)[C@@H](COc2ccccc2)N1Cc1ccc(CO)cc1 | HIV |  | PR-I84V | Protease | fluorescence |  | Ki |  | 0.0004 µM
C=CCOC(=O)C1=C(C)NC(N)=[N+]2[C@H](C[C@@H](O)CCCCCCOCc3ccccc3)CC[C@H]12 | HIV-1 | NL4-3 |  | Nef | ELISA |  | inhibition | 5 µM | 101.1%
Nc1nc2c(ncn2[C@H]2CC[C@@H](COP(=O)(O)OP(=O)(O)OP(=O)(O)O)O2)c(=O)[nH]1 | HIV |  | RT-N137D | Reverse transcriptase | nucleotide incorporation / radiometric |  | IC50 |  | 0.13 µM
CC[C@H]1C=CCC[C@@]2(C[C@@H]3CC[C@@H]4[C@H](C(=O)OCc5ccccc5)[C@]5(CCC[C@@H](C)O5)NC(=[N+]34)N2)O1 | HIV-1 | NL4-3 |  | Nef | ELISA |  | inhibition | 5 µM | 80.6%
CO[P@](=O)(c1cc(C)cc(/C=C/C#N)c1)c1c(C(N)=O)[nH]c2ccc(Cl)cc12 | HIV |  | Y181C/K103 | Reverse transcriptase |  |  | IC50 |  | 1.614 µM
CC(C)C[C@H](NC(=O)[C@H](C)NC(=O)C[C@H](O)[C@H](CC(C)C)NC(=O)[C@@H](NC(=O)[C@@H](NC(=O)C(C)O)C(C)C)C(C)C)[C@@H](O)CC(=O)O | HIV-2 |  |  | Protease | HPLC | pH 7.0 | IC50 |  | 1.5 µM
COC(=O)C(Cc1ccccc1)NC(=O)[C@@H](NC(=O)[C@@H](C[C@H](O)[C@H](CC1CCCCC1)NC(=O)[C@@H](NC(=O)[C@H](Cc1ccccc1)CS(=O)(=O)C(C)(C)C)C(C)C)C(C)C)C(C)C | HIV-2 | EHO | RT-S102L | Reverse transcriptase | nucleotide incorporation |  | IC50 |  | >1553 µM
CC[C@H]1C=CCC[C@@]2(C[C@@H]3CC[C@@H]4[C@H](C(=O)OC/C=C/c5ccccc5)[C@]5(CCC[C@@H](C)O5)NC(=[N+]34)N2)O1 | HIV-1 | NL4-3 |  | Nef | ELISA |  | inhibition | 5 µM | 78.1%
CC[C@H]1C(=O)Nc2ccc(F)cc2N1C(=O)OC(C)C | HIV |  | RT-N137S | Reverse transcriptase | nucleotide incorporation / radiometric |  | IC50 |  | 0.021 µM
CC(=O)c1ccc(C)cc1NC(C(N)=O)c1c(Cl)cccc1Cl | HIV-2 | EHO | RT-S102L | Reverse transcriptase | nucleotide incorporation |  | IC50 |  | >1425 µM

For reference, 2 entries again:

smiles	organism	strain or isolate	changes	protein	read by	conditions	measure	dose	result
Cc1cn([C@@H]2O[C@H](CO[Si](C)(C)C(C)(C)C)[C@@]3(OS(=O)(=O)C=C3N)[C@H]2O[Si](C)(C)C(C)(C)C)c(=O)[nH]c1=O	HIV		RT-N137K	Reverse transcriptase	nucleotide incorporation / radiometric		IC50		2.1 µM
O=S1(=O)N(Cc2ccc(CO)cc2)[C@H](COc2ccccc2)[C@H](O)[C@@H](O)[C@@H](COc2ccccc2)N1Cc1ccc(CO)cc1	HIV		PR-G48V V82A I84V L90M	Protease			fold resistance		377